{"source": "the supplement of paper PMC8773631", "note": "± gives the uncertainty stated by the source. The list shows a part of the results, in another mix than the full data.", "data": [{"test_system": "NCC-MFS5-C1", "experiment": "cell viability relative to DMSO control; higher = less growth inhibition", "conditions": "10 µM; treatment time: 3 days", "protocol": "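NCC-MFS5-C1 myxofibrosarcoma cells (1x10^4 per well, 384-well) were treated on day 2 with 10 µM of each drug. On day 5, viability was read by CCK-8 absorbance at 450 nm and normalised to the DMSO control (%), n = 2.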", "units": {"cell viability": "%"}, "values": [{"smiles": "[As+3].[As+3].[O-2].[O-2].[O-2]", "note": "[Arsenic(III) oxide]", "cell viability": "106 ± 13"}]}]}
